Anti-infective test results gathered from many reports (values: NIAID ChemDB through PubChem).

MIC50, MIC90 and the like: level of inhibition, or share of isolates inhibited. ECn is the concentration giving n% inhibition of infection, replication or growth. Conditions beyond the fields shown may differ between rows. Percent inhibition refers to the dose given; in toxicity tests it is the harm to the cells. Blank or dashed fields: not listed here. Fold resistance: result on the changed form divided by that on wild type. ICn is the concentration giving n% inhibition.

SMILES,read by,endpoint,changes,strain,agent,target,test,cells,tested at,result
CCCSc1ccc2nc(NC(=O)OC)[nH]c2c1,,inhibition,,,Vittaforma corneae,,culture,RK-13,0.001 µg/mL,4.1%
Nc1nc2c(ncn2[C@H]2CC[C@@H](COP(=O)(O)OP(=O)(O)OP(=O)(O)O)O2)c(=O)[nH]1,nucleotide incorporation / radiometric,fold resistance,RT-N137E,,HIV,Reverse transcriptase,target,,,1.66
CC(C)=CCN1c2cc(Cl)cc3[nH]c(=S)n(c23)C[C@@H]1C,,EC95,RT-K70R L100I,,HIV-1,,culture,MT-4,,0.1 µM
O=C(C1CCCCC1)N1C[C@H](CN2CCC(c3ccccc3)CC2)[C@@H](c2ccccc2)C1,radiometric,fold resistance,CCR5-D276A,,,CCR5,target,,,3.13
CCOC(=O)Nc1cc2c(c(N)n1)N=C(c1ccc(OC)cc1)CO2,,inhibition,,,Encephalitozoon intestinalis,,culture,RK-13,0.01 µg/mL,17.9%
CCN(C(=O)OCc1ccccc1)C1CCN(CC[C@](C)(CN(C)S(=O)(=O)c2ccccc2)c2ccccc2)CC1,radiometric,IC50,,,,CCR5,target,,,0.004 µM
C[C@H](Cc1ccc(O)c(O)c1)[C@@H](C)Cc1ccc(O)c(O)c1,broth dilution,MIC100,,CCC 126-2000,Candida albicans,,culture,,,250 µg/mL
Cc1ccc(C(=O)Nc2nnc(NCCCN3CCCC3=O)s2)cc1,,IC50,,,Human cytomegalovirus,Polymerase,target,,,>25 µM
CC[C@H]1C(=O)Nc2ccc(F)cc2N1C(=O)OC(C)C,nucleotide incorporation / radiometric,IC50,RT-N137S,,HIV,Reverse transcriptase,target,,,0.021 µM
C=CCN(C(=O)OCc1ccc([N+](=O)[O-])cc1)C1CCN(CC[C@](C)(CN(C)S(=O)(=O)c2ccccc2)c2ccccc2)CC1,radiometric,fold resistance,CCR5-E283A,,,CCR5,target,,,588
CO[C@H]1[C@@H](OC(=O)/C=C/C=C/C=C/C=C/C(=O)O)CC[C@@]2(CO2)[C@@H]1[C@@]1(C)O[C@@H]1CC=C(C)C,,inhibition,,,Encephalitozoon intestinalis,,culture,RK-13,0.0001 µg/mL,64.3%
Cc1cn([C@@H]2O[C@H](CO[Si](C)(C)C(C)(C)C)[C@@]3(OS(=O)(=O)C=C3N)[C@H]2O[Si](C)(C)C(C)(C)C)c(=O)[nH]c1=O,nucleotide incorporation / radiometric,fold resistance,RT-N137T,,HIV,Reverse transcriptase,target,,,0.44
COc1ccc2cc3[n+](cc2c1OC)CCc1cc2c(cc1-3)OCO2,,inhibition,,,Encephalitozoon intestinalis,,culture,RK-13,0.1 µg/mL,47%
O=C(/C=C/c1ccccc1Cl)Nc1nnc(NCc2cccc3ccccc23)s1,,IC50,,,Human cytomegalovirus,Polymerase,target,,,>25 µM
CC[C@]1(O)C[C@H]2CN(CCc3c([nH]c4ccccc34)[C@@](C(=O)OC)(c3cc4c(cc3OC)N(C)[C@H]3[C@@](O)(C(=O)OC)[C@H](OC(C)=O)[C@]5(CC)C=CCN6CC[C@]43[C@@H]65)C2)C1,,inhibition,,,Encephalitozoon intestinalis,,culture,RK-13,1 µg/mL,71.5%
O=C(Nc1nnc(NC2CCCc3ccccc32)s1)c1c(Cl)cccc1Cl,,IC50,,,Human cytomegalovirus,Polymerase,target,,,<25 µM
CCOC(=O)Nc1cc2c(c(N)n1)N=C(c1ccccc1)CCN2,,inhibition,,,Encephalitozoon intestinalis,,culture,RK-13,0.01 µg/mL,73.2%
CCO/N=C/c1ccc(OCCC2CCN(c3ccc(C)nn3)CC2)cc1,neutral red,EC50,,211-CV13 (ICAM-1 receptor group 9),Rhinovirus,,culture,KB,,0.008 µM
CCCCCCCC/C=C/CCCCCCCC(=O)Nc1nnc(NCCCn2ccnc2)s1,,IC50,,,Human cytomegalovirus,Polymerase,target,,,>25 µM
CCOC(=O)Nc1cc2[nH]c(-c3ccc4c(c3)OCO4)nc2c(NC(c2ccccc2)c2ccccc2)n1,,inhibition,,,Encephalitozoon intestinalis,,culture,RK-13,1 µg/mL,59%
NS(=O)(=O)c1ccc(CCNc2nnc(NC(=O)c3cc4ccccc4s3)s2)cc1,,IC50,,,Human cytomegalovirus,Polymerase,target,,,>25 µM
C#CC[C@@H](C(=O)N[C@H](/C=C/C(=O)OCC)C[C@@H]1CCNC1=O)n1cccc(NC(=O)c2cc(C)on2)c1=O,cytopathic effect / XTT,inhibition,,Serotype 29,Rhinovirus,,culture,H1-HELA,0.175 µM,90%
CCOc1ccc2ccccc2c1C(=O)Nc1nnc(NCc2ccco2)s1,,IC50,,,Human cytomegalovirus,Polymerase,target,,,>25 µM
CCOC(=O)Nc1cc2c(c(N)n1)N=C(c1ccc(OC)c(OC)c1)CO2,,inhibition,,,Encephalitozoon intestinalis,,culture,RK-13,0.1 µg/mL,5.7%
CCCCCCCCCCCNc1nnc(NC(=O)c2ccc([N+](=O)[O-])o2)s1,,IC50,,,Human cytomegalovirus,Polymerase,target,,,<25 µM
CO[P@](=O)(c1cc(C)cc(/C=C/C#N)c1)c1c(C(N)=O)[nH]c2ccc(Cl)c(F)c12,,IC50,,,Human,DNA polymerase alpha,host protein,,,145.7 µM

The first 3 rows once more:

SMILES,read by,endpoint,changes,strain,agent,target,test,cells,tested at,result
CCCSc1ccc2nc(NC(=O)OC)[nH]c2c1,,inhibition,,,Vittaforma corneae,,culture,RK-13,0.001 µg/mL,4.1%
Nc1nc2c(ncn2[C@H]2CC[C@@H](COP(=O)(O)OP(=O)(O)OP(=O)(O)O)O2)c(=O)[nH]1,nucleotide incorporation / radiometric,fold resistance,RT-N137E,,HIV,Reverse transcriptase,target,,,1.66
CC(C)=CCN1c2cc(Cl)cc3[nH]c(=S)n(c23)C[C@@H]1C,,EC95,RT-K70R L100I,,HIV-1,,culture,MT-4,,0.1 µM